Assay results as given in patent publication US7625917B2, “Thiolesters and uses thereof” (priority 1998, dated 2009).

Tested on: HIV-1RF
Experiment: XTT cytoprotection assay (antiviral activity)
Assay type: cell-based
Excerpt: One exemplary means to determine antiviral activity is with CEM-SS cells and virus (e.g., HIV-1RF) (MOI=0.01) using the XTT (2,3-bis[2-methoxy-4-nitro-5-sulfophenyl]-5-[(phenylamino)carbonyl]-2H-tetrazolium hydroxide) cytoprotection assay, as described by Rice (1993) PNAS 90:9721-9724, and Rice (1997) Antimicrob. Agents Chemother. 41:419-426. Briefly, cells are infected with HIV-1 RF (or other virus to be tested) in the presence of various dilutions of test compounds (thiolesters and controls). The cultures are incubated for seven days. During this time control cultures without protective compounds (i.e., compounds with anti-viral activity) replicate virus, induce syncytia, and result in about 90% cell death. The cell death is measured by XTT dye reduction. XTT is a soluble tetrazolium dye that measures mitochondrial energy output, similar to MTT. Positive controls using dextran sulfate (an attachment inhibitor) or 3′-Azido-2′-3′-dideoxythymidine, AZT (a reverse transcriptase inhibitor) are added to each assay. Individual assays are done in duplicate using a sister plate method.
Effective antiviral concentrations providing 50% cytoprotection (EC50), and cellular growth inhibitory concentrations causing 50% cytotoxicity (IC50) are calculated.

[1] = Table 1, in vitro therapeutic index (IC50/EC50)

## Cc1cc(NS(=O)(=O)c2ccc(NC(=O)c3ccccc3SSc3ccccc3C(=O)Nc3ccc(S(=O)(=O)Nc4cc(C)nc(C)n4)cc3)cc2)nc(C)n1 [Compound 19 D]
[1]
  TI: 9.6

## NS(=O)(=O)c1ccc(CCn2sc3ccccc3c2=O)cc1 [Compound 24 BITA]
Table 2, IC50/EC50
  TI: 22.7

## O=C(Nc1ccc(S(=O)(=O)c2ccc([N+](=O)[O-])cc2)cc1)c1ccccc1SSc1ccccc1C(=O)Nc1ccc(S(=O)(=O)c2ccc([N+](=O)[O-])cc2)cc1 [Compound 31 D]
Table 3, IC50/EC50
  TI: >26

## CC(=O)Nc1ccc(S(=O)(=O)Nc2ccc(S(=O)(=O)c3ccc(NC(=O)c4ccccc4SSc4ccccc4C(=O)Nc4ccc(S(=O)(=O)c5ccc(NS(=O)(=O)c6ccc(NC(C)=O)cc6)cc5)cc4)cc3)cc2)cc1 [Compound 28 D]
Table 3, IC50/EC50
  TI: 12.7

## COc1ccc(NS(=O)(=O)c2ccc(NC(=O)c3ccccc3SSc3ccccc3C(=O)Nc3ccc(S(=O)(=O)Nc4ccc(OC)nn4)cc3)cc2)nn1 [Compound 12 D]
[1]
  TI: 12.8

## CC(=O)NS(=O)(=O)c1ccc(NC(=O)c2ccccc2SC(=O)CCCC[n+]2cccc(Cl)c2)cc1 [Compound 57]
Table 10, IC50/EC50
  TI: 4.8

## O=C(NS(=O)(=O)c1ccc(NC(=O)c2ccccc2SSc2ccccc2C(=O)Nc2ccc(S(=O)(=O)NC(=O)c3ccccc3)cc2)cc1)c1ccccc1 [Compound 3 D]
[1]
  TI: 14.2

## Nc1ccc(S(=O)(=O)c2ccc(NC(=O)c3ccccc3SSc3ccccc3C(=O)Nc3ccc(S(=O)(=O)c4ccc(N)cc4)cc3)cc2)cc1 [Compound 26 D]
Table 3, IC50/EC50
  TI: >73.5

## NS(=O)(=O)c1ccc(CCNC(=O)c2ccccc2SSc2ccccc2C(=O)NCCc2ccc(S(N)(=O)=O)cc2)cc1 [Compound 24 D, N,N′-(2,2′-dithiodibenzoyl)-bis-4-(2-aminoethyl)benzene-sulfonamide]
Table 2, IC50/EC50
  TI: 139

## O=C(NS(=O)(=O)c1ccc(-n2sc3ccccc3c2=O)cc1)c1ccccc1 [Compound 3 BITA]
[1]
  TI: 5.3

## O=C(Nc1ccc(S(=O)(=O)Nc2ccc(Cl)nn2)cc1)c1ccccc1SSc1ccccc1C(=O)Nc1ccc(S(=O)(=O)Nc2ccc(Cl)nn2)cc1 [Compound 4 D]
[1]
  TI: 6.3
